Where two headings read alike, the source gives them in different places.
Tested on: Y188L RT mutant VSV-G pseudotyped HIV-1 vector
Type: cell-based

SMILES | fold change in EC50 for mutant relative to wild type, Y188L (293T cells) | fold change in EC50 for mutant relative to wild type, Y188L
Cc1cn([C@H]2C[C@H](N=[N+]=[N-])[C@@H](CO)O2)c(=O)[nH]c1=O [AZT, 3’-azido-3’-deoxythymidine] | [0.8] | –
Clc1ccccc1-c1nc2ccccn2c1NC1CCCCC1 [F2] | – | [>121.1]
Cc1ccnc2c1NC(=O)c1cccnc1N2C1CC1 [NVP, nevirapine] | [>1052.6] | –

— paper PMC3560175 (Virology Journal, 2012)
